Results deposited as PubChem BioAssay AID1259414 (Drosophila RNAi Screening Center, 2018).
Aim: 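Genome-wide screen for host control of endosymbiont load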 (primary screen). Cell system: Drosophila JW18 cells infected with Wolbachia. Reagent: long dsRNA against Drosophila genes, 0.25 µg dsRNA per well of a 384-well plate. Timing: 5 days. Conditions: cells persistently infected with Wolbachia before knock-down; no added drug. Detection: 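Imaged fluorescence in situ signal for Wolbachia 23S rRNA per DAPI-counted host cell, given as a robust z-score within each plate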. Reading the numbers: Wolbachia per cell robust z: higher = more Wolbachia per host cell than the plate typical. Call rule: 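Hit when robust z is 1.5 or more, or -1.5 or less, in at least two of three replicates; excludes dsRNAs with several or no targets, genes not expressed in JW18 and well A1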.
In all, the deposit lists about 24,000 reagents; shown is an unselected part of those that have a named target and a result. Over the whole deposit, about 1,210 (5%) got an active call. 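Inactive calls also include excluded dsRNAs with several or no targets, genes unexpressed in JW18, and well A1, regardless of score.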 Entries without a mark were called inactive.

After knock-down of Ets21C (GeneID 33229) [DRSC00751], the screen gave Wolbachia per cell robust z, rep 1 = 1.04; Wolbachia per cell robust z, rep 2 = -0.00352; Wolbachia per cell robust z, rep 3 = -2.22.
CG15255 (GeneID 34913) [DRSC01869] gave Wolbachia per cell robust z, rep 1 = -1.06; Wolbachia per cell robust z, rep 2 = 0.0975; Wolbachia per cell robust z, rep 3 = 0.0723.
With knock-down of CG15255 (GeneID 34913) [DRSC29808] the results were Wolbachia per cell robust z, rep 1 = -3.71; Wolbachia per cell robust z, rep 2 = 0.762; Wolbachia per cell robust z, rep 3 = -4.02.
For meep (GeneID 261663) [DRSC07948] the deposit lists Wolbachia per cell robust z, rep 1 = 0.47; Wolbachia per cell robust z, rep 2 = 3.4; Wolbachia per cell robust z, rep 3 = 0.888.
For meep (GeneID 261663) [DRSC25511] the deposit lists Wolbachia per cell robust z, rep 1 = 0.551; Wolbachia per cell robust z, rep 2 = 1.32; Wolbachia per cell robust z, rep 3 = 0.553.
With knock-down of Psn (GeneID 40260) [DRSC11743] the results were Wolbachia per cell robust z, rep 1 = -0.296; Wolbachia per cell robust z, rep 2 = 0.38; Wolbachia per cell robust z, rep 3 = -0.101.
With knock-down of Tim17a1 (GeneID 41500) [DRSC14184], the record shows Wolbachia per cell robust z, rep 1 = 1.44; Wolbachia per cell robust z, rep 2 = -3.84; Wolbachia per cell robust z, rep 3 = 0.108.
Depletion of CG3386 (GeneID 38081) [DRSC08566] came out at: Wolbachia per cell robust z, rep 1 = -0.787; Wolbachia per cell robust z, rep 2 = -1.08; Wolbachia per cell robust z, rep 3 = -0.938.
CG3386 (GeneID 38081) [DRSC28282] scored Wolbachia per cell robust z, rep 1 = 1.1; Wolbachia per cell robust z, rep 2 = 0.117; Wolbachia per cell robust z, rep 3 = 0.149.
Knock-down of Rep (GeneID 37246) [DRSC07526] resulted in: Wolbachia per cell robust z, rep 1 = 0.888; Wolbachia per cell robust z, rep 2 = 0.42; Wolbachia per cell robust z, rep 3 = -1.89.
After knock-down of MFS1 (GeneID 246519) [DRSC04115], the screen gave Wolbachia per cell robust z, rep 1 = -0.434; Wolbachia per cell robust z, rep 2 = -0.758; Wolbachia per cell robust z, rep 3 = -1.08.
With knock-down of MFS1 (GeneID 246519) [DRSC27926] the results were Wolbachia per cell robust z, rep 1 = -0.294; Wolbachia per cell robust z, rep 2 = -0.0497; Wolbachia per cell robust z, rep 3 = -0.523.
CG10177 (GeneID 42772) [DRSC14201] showed Wolbachia per cell robust z, rep 1 = 0.503; Wolbachia per cell robust z, rep 2 = -0.284; Wolbachia per cell robust z, rep 3 = 1.56.
Knock-down of CG10177 (GeneID 42772) [DRSC27888] gave: Wolbachia per cell robust z, rep 1 = -0.194; Wolbachia per cell robust z, rep 2 = 1.7; Wolbachia per cell robust z, rep 3 = -0.646.
Against CG10177 (GeneID 42772) [DRSC41619] the deposit lists Wolbachia per cell robust z, rep 1 = 0.439; Wolbachia per cell robust z, rep 2 = 0.621; Wolbachia per cell robust z, rep 3 = -1.47.
Silencing of lncRNA:CR33942 (GeneID 3771992) [DRSC37857] resulted in: Wolbachia per cell robust z, rep 1 = 0.811; Wolbachia per cell robust z, rep 2 = 0.114; Wolbachia per cell robust z, rep 3 = -0.117.
Silencing of lncRNA:CR33942 (GeneID 3771992) [DRSC39119] gave: Wolbachia per cell robust z, rep 1 = -0.662; Wolbachia per cell robust z, rep 2 = -0.297; Wolbachia per cell robust z, rep 3 = 1.69.
After knock-down of dj (GeneID 40838) [DRSC12625] the results were Wolbachia per cell robust z, rep 1 = 0.542; Wolbachia per cell robust z, rep 2 = -0.29; Wolbachia per cell robust z, rep 3 = -0.991.
After knock-down of dj (GeneID 40838) [DRSC25525], the screen gave Wolbachia per cell robust z, rep 1 = -0.242; Wolbachia per cell robust z, rep 2 = -0.849; Wolbachia per cell robust z, rep 3 = 1.23.
Against GV1 (GeneID 38238) [DRSC08228], the entry reads Wolbachia per cell robust z, rep 1 = -0.0366; Wolbachia per cell robust z, rep 2 = -2.72; Wolbachia per cell robust z, rep 3 = 0.154.
Depletion of GV1 (GeneID 38238) [DRSC25953] came out at: Wolbachia per cell robust z, rep 1 = 0.188; Wolbachia per cell robust z, rep 2 = 0.804; Wolbachia per cell robust z, rep 3 = 0.314.
Depletion of CG3224 (GeneID 31600) [DRSC18295] came out at: Wolbachia per cell robust z, rep 1 = 0.871; Wolbachia per cell robust z, rep 2 = 0.485; Wolbachia per cell robust z, rep 3 = 0.588.
Tti1 (GeneID 41189) [DRSC15163] showed Wolbachia per cell robust z, rep 1 = -2.7; Wolbachia per cell robust z, rep 2 = -0.97; Wolbachia per cell robust z, rep 3 = -0.616.
With knock-down of Tti1 (GeneID 41189) [DRSC27694], the record shows Wolbachia per cell robust z, rep 1 = -0.673; Wolbachia per cell robust z, rep 2 = -0.358; Wolbachia per cell robust z, rep 3 = -11.1.
St2 (GeneID 41098) [DRSC15142] showed Wolbachia per cell robust z, rep 1 = 1.08; Wolbachia per cell robust z, rep 2 = 0.736; Wolbachia per cell robust z, rep 3 = -0.625.
Depletion of St2 (GeneID 41098) [DRSC22624] gave: Wolbachia per cell robust z, rep 1 = -0.183; Wolbachia per cell robust z, rep 2 = -1.55; Wolbachia per cell robust z, rep 3 = 0.286.
Depletion of CG42562 (GeneID 37008) [DRSC06453] came out at: Wolbachia per cell robust z, rep 1 = -0.152; Wolbachia per cell robust z, rep 2 = -0.0377; Wolbachia per cell robust z, rep 3 = -2.53.
Knock-down of RAF2 (GeneID 39821) [DRSC10443] resulted in: Wolbachia per cell robust z, rep 1 = 0.136; Wolbachia per cell robust z, rep 2 = -0.263; Wolbachia per cell robust z, rep 3 = -1.83.
Knock-down of RAF2 (GeneID 39821) [DRSC10454] resulted in: Wolbachia per cell robust z, rep 1 = 0.284; Wolbachia per cell robust z, rep 2 = 0.557; Wolbachia per cell robust z, rep 3 = -0.48.
RAF2 (GeneID 39821) [DRSC26436] scored Wolbachia per cell robust z, rep 1 = 1.03; Wolbachia per cell robust z, rep 2 = 1.1; Wolbachia per cell robust z, rep 3 = 0.795.
